Anti-infective test results gathered from many reports (values: NIAID ChemDB through PubChem).

Blank or dashed fields: not listed here.

{"SMILES": "COc1ccc(C[C@H](NC(=O)c2ccc3c(c2)nc(-c2ccoc2)n3C2CCCCC2)C(=O)O)cc1", "test": "target", "protein": "RNA-dependent RNA polymerase", "measure": "IC50", "species": "Poliovirus", "value": ">25 µM"}
{"SMILES": "NC(=O)c1csc([C@@H]2O[C@H](CO)[C@@H](O)[C@H]2O)n1", "test": "culture", "strain": "Nakayama", "cells": "VERO", "measure": "EC50", "species": "Japanese encephalitis virus", "value": "73 µg/mL"}
{"SMILES": "Nc1nc2c(ncn2CCOCP(=O)(O)O)c(=O)[nH]1", "test": "toxicity", "cells": "PHK", "measure": "CC50", "value": "0.1 µg/mL"}
{"SMILES": "Cc1c(C(=O)O)ccc2c1nc(-c1ccoc1)n2C1CCCCC1", "test": "target", "protein": "RNA-dependent RNA polymerase", "measure": "IC50", "species": "Poliovirus", "value": ">25 µM"}
{"SMILES": "[N-]=[N+]=NCC(Cn1cnc2c(N)nc(N)nc21)OCP(=O)(O)O", "test": "toxicity", "cells": "PHK", "measure": "CC50", "value": ">50 µg/mL"}
{"SMILES": "CCC(C)NC(=O)C(NC(C)=O)[C@H]1CC(C(=O)O)C[C@@H]1N=C(N)N", "test": "target", "protein": "Neuraminidase", "measure": "IC50", "species": "Influenza A virus (H6N2)", "value": "0.41 µM"}
{"SMILES": "NC(=O)c1ncn([C@@H]2O[C@H](CO)[C@@H](O)[C@H]2O)n1", "test": "culture", "strain": "Asibi", "cells": "LLC-MK2", "measure": "EC50", "species": "Yellow fever virus", "value": "8 µg/mL"}
{"SMILES": "Nc1ccn(C[C@@H](CO)OCP(=O)(O)O)c(=O)n1", "test": "culture", "cells": "3T3", "measure": "EC50", "species": "Camelpox virus", "value": "2.5 µM"}
{"SMILES": "CCCN(CC1CC1)C(=O)C(NC(C)=O)[C@H]1CC(C(=O)O)C[C@@H]1N=C(N)N", "test": "target", "protein": "Neuraminidase", "measure": "IC50", "species": "Influenza A virus (H6N2)", "value": "0.2 µM"}
{"SMILES": "Nc1nc2c(ncn2CC(CO)OCP(=O)(O)O)c(=O)[nH]1", "test": "toxicity", "cells": "PHK", "measure": "CC50", "value": "6.6 µg/mL"}
{"SMILES": "COc1c(C)c2c(c(O)c1C/C=C(\\C)CCC(=O)O)C(=O)OC2", "test": "culture", "cells": "VERO 76", "measure": "EC50", "species": "Camelpox virus", "value": "1.3 µM"}
{"SMILES": "COC(=O)[C@H](Cc1c[nH]c2ccc(O)cc12)NC(=O)c1ccc2c(c1)nc(-c1ccccn1)n2C1CCCCC1", "test": "target", "protein": "RNA-dependent RNA polymerase", "measure": "IC50", "species": "Poliovirus", "value": ">25 µM"}
{"SMILES": "Nc1ccn(C[C@@H](CO)OCP(=O)(O)O)c(=O)n1", "test": "culture", "cells": "BSC", "measure": "EC50", "species": "Camelpox virus", "value": "28 µM"}
{"SMILES": "O=C(N[C@@H](Cc1c[nH]c2ccc(O)cc12)C(=O)O)c1ccc2c(c1)nc(-c1ccoc1)n2[C@@H]1CCCC[C@H]1O", "test": "target", "protein": "RNA-dependent RNA polymerase", "measure": "IC50", "species": "Poliovirus", "value": ">25 µM"}
{"SMILES": "Cn1c(O)c(N=NC(N)=S)c2ccccc21", "test": "culture", "cells": "VERO", "measure": "EC50", "species": "Monkeypox virus", "value": "141 µM"}
{"SMILES": "O=c1cnn([C@@H]2O[C@H](CO)[C@@H](O)[C@H]2O)c(=O)[nH]1", "test": "culture", "strain": "FNV", "cells": "VERO", "measure": "EC90", "species": "Yellow fever virus", "value": "0.9 µg/mL"}
{"SMILES": "Cc1ccc(C(NC(=O)c2ccc3c(c2)nc(-c2ccoc2)n3C2CCCCC2)C(=O)O)cc1C", "test": "target", "protein": "RNA-dependent RNA polymerase", "measure": "IC50", "species": "Poliovirus", "value": ">25 µM"}
{"SMILES": "Nc1ccn(C[C@H]2COP(=O)(O)CO2)c(=O)n1", "test": "toxicity", "cells": "PHK", "measure": "CC50", "value": "≥41 µg/mL"}
{"SMILES": "COc1ccc([C@@H](C)NC(=O)c2ccc3c(c2)nc(-c2ccoc2)n3C2CCCCC2)cc1OC", "test": "target", "protein": "RNA-dependent RNA polymerase", "measure": "IC50", "species": "Poliovirus", "value": ">25 µM"}
{"SMILES": "Nc1ncnc2c1nnn2C[C@@H](CO)OCP(=O)(O)O", "test": "toxicity", "cells": "PHK", "measure": "CC50", "value": "8.3 µg/mL"}
{"SMILES": "CCCC(C)NC(=O)C(NC(C)=O)[C@H]1CC(C(=O)O)C[C@@H]1N=C(N)N", "test": "target", "protein": "Neuraminidase", "measure": "IC50", "species": "Influenza A virus (H6N2)", "value": "3.2 µM"}
{"SMILES": "CN(C)CCCNC(=O)COc1ccc(-c2nc3cc(C(=O)O)ccc3n2C2CCCCC2)cc1", "test": "target", "protein": "RNA-dependent RNA polymerase", "measure": "IC50", "species": "Poliovirus", "value": ">25 µM"}

A second listing of 2 rows from above:

| SMILES | test | protein | strain | cells | measure | species | value |
|---|---|---|---|---|---|---|---|
| COC(=O)[C@H](Cc1c[nH]c2ccc(O)cc12)NC(=O)c1ccc2c(c1)nc(-c1ccccn1)n2C1CCCCC1 | target | RNA-dependent RNA polymerase |  |  | IC50 | Poliovirus | >25 µM |
| NC(=O)c1csc([C@@H]2O[C@H](CO)[C@@H](O)[C@H]2O)n1 | culture |  | Nakayama | VERO | EC50 | Japanese encephalitis virus | 73 µg/mL |

ECn: concentration that inhibits the pathogen or its effect by n%. Neighbouring rows are from separate reports. ICn: concentration for n% inhibition. CCn is the concentration with n% toxicity to the cells.